Where a name gives a salt, the structure may show the parent alone.
Test system: activated sludge inoculum
Assay: Biodegradability Test Method, OECD 301B CO2 evolution (modified Sturm Test)

Row | Compound | % SOC Average [%] | % THCO2 average (percent of theoretical CO2 formation) [%]
1 | N-Alkanoyl N-methyl glucamide sulfate [reference compound] | 56 | –
2 | CCCCCCCCCCCCNC(=O)[C@H](O)[C@@H](O)[C@H](O)[C@H](O)COS(=O)(=O)O [Example 1, Sodium (2R,3R,4S,5R)-6-(dodecylamino)-2,3,4,5-tetrahydroxy-6-oxohexyl sulfate] | 8 | 79.6
